## Single amino acid changes in Zika NS2B-NS3 and viral growth

Reference: Ni et al. 2025, doi:10.1038/s41467-025-63602-z.

Protein: NS2B and the protease part of NS3 of Zika virus strain MR766. Positions count along the chain below; NS2B spans 2-131 and NS3 starts at 132.
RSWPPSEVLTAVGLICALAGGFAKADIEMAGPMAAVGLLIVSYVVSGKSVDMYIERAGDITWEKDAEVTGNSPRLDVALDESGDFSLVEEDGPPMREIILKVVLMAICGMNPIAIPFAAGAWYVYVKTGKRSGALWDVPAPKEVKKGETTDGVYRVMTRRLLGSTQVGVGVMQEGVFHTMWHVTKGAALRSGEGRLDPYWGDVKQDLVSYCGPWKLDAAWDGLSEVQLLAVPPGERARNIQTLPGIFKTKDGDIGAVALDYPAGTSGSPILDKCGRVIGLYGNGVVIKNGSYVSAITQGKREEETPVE

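Pools of virus carrying all single amino acid changes were selected for growth in Huh-7.5 cells. Sequencing of three replicate libraries (two for positions 207-308) was averaged into one effect per change.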

Values are log2 effects on growth: 0 is wild type, lower means poorer growth.
Each entry names the wild-type residue, its position and the residue put in its place.
This list holds changes to threonine only.
Position 1 still belongs to NS2A. In the paper, -1 or higher counts as tolerated.
The region was split into three libraries (1-103, 104-206, 207-308).
Six mutants with high scores were retested singly and none clearly outgrew wild type, so positive values are not proof of better growth.

With D59T the assay gave -3.84. For I60T the result was -7.76. W62T gave -7.51. For E63T the result was -3.02. For K64T the result was -0.45.

For D65T the result was -5.89. A66T read -6.74. E67T gave -3.13. For V68T the result was -4.24. G70T gave -6.78.

For N71T the result was 0.72. S72T gave -6.76. With P73T the assay gave -4.25. With R74T the assay gave -0.40. L75T gave -7.55.

D76T read -0.45. For V77T the result was -7.44. For A78T the result was -0.34. For L79T the result was -7.31. D80T gave -7.25.

E81T read -7.36. With S82T the assay gave -7.89. G83T gave -7.66. For D84T the result was -7.62. For F85T the result was -6.50.

With S86T the assay gave -0.27. L87T read -7.36. V88T gave -4.46. With E89T the assay gave -1.00. With E90T the assay gave -1.80.

With D91T the assay gave -1.35. G92T read -2.78. With P93T the assay gave -3.57. With P94T the assay gave -2.76. M95T read -1.81.

With R96T the assay gave -2.92. For E97T the result was -2.48. With I98T the assay gave -3.11. I99T gave -1.64. L100T read -1.89.

K101T read -7.57. With V102T the assay gave -0.74. With V103T the assay gave -1.69. For L104T the result was -4.65. M105T gave -7.32.

A106T read -0.55. I107T gave -2.27. With C108T the assay gave -2.52. For G109T the result was -6.45. M110T read -0.61.

For N111T the result was 0.19. For P112T the result was -3.83. For I113T the result was -6.17. A114T gave -1.89. I115T read -2.07.

P116T gave -7.39.

A selection of 2 entries from above:

{"mutation": "L100T", "log2 growth effect": -1.89}
{"mutation": "G109T", "log2 growth effect": -6.45}